Measured values from several laboratories, pooled; numbers as filed in NIAID ChemDB.

Common to all: growth or infection tests; agent: HIV-1

Two numbers with a dash give a range or band. Blank or dashed fields: not listed here. Rows are shuffled and stem from different studies. ECn is the concentration giving n% inhibition of infection, replication or growth.

smiles	cells	measure	changes	read by	strain or isolate	result
NC(=O)CCNC(=O)c1ccccc1SCc1ccc([N+](=O)[O-])o1	Macrophage	EC50		XTT		1.61 µM
CC(C)C1=C2[C@H]3CC[C@@H]4[C@@]5(C)CC[C@H](OC(=O)[C@H]6C[C@@H](C(=O)O)C6(C)C)C(C)(C)[C@@H]5CC[C@@]4(C)[C@]3(C)CC[C@@]2(CCNCc2ccc(CN3CCN(C)CC3)cc2)CC1=O	MT-2	EC50		p24 / ELISA	92HT599	<1 µM
CN(C)CCCN=C(N)c1ccc(C(N)=NCCCN(C)C)cc1	PBMC	EC50			IIIB	11 µM
CCOC(=O)CNc1nc(Nc2ccc(F)cc2)nc(Oc2cc(=O)oc3ccccc23)n1	MT-4	EC50		MTT	IIIB	>67.6 µg/mL
C=C1CN(S(=O)(=O)c2ccc(C)cc2)CCCN(Cc2ccccc2)CCCN(S(=O)(=O)c2ccc(C)cc2)C1	PBMC	EC50		p24	BaL	2.33 µM
Cc1cccc(C)c1N1C(=O)c2ccc(O)cc2C1=O	CEM	EC50		syncytia	IIIB	>30 µM
CC(C)CN(C[C@@H](O)[C@H](Cc1ccccc1)NC(=O)O[C@H]1CCOC1)S(=O)(=O)c1ccc2nc(N)oc2c1	MT-4	EC50		cytopathic effect / MTT	LAI WT	0.0076 µM
CCOC(=O)CNc1nc(NC(=O)Nc2ccccc2C)nc(Oc2cc(=O)oc3ccccc23)n1	MT-4	EC50		MTT	IIIB	>75.53 µg/mL
CC(C)C1=C2[C@H]3CC[C@@H]4[C@@]5(C)CC[C@H](OC(=O)[C@H]6C[C@@H](C(=O)O)C6(C)C)C(C)(C)[C@@H]5CC[C@@]4(C)[C@]3(C)CC[C@@]2(CC(=O)NCC2(NC(=O)c3ccc(Cl)cc3)CNC2)CC1=O	MT-2	EC50		p24 / ELISA	92HT599	<1 µM
CC(C)[C@H](NC(=O)[C@H](NCc1ccccc1)[C@H](O)[C@H](Cc1ccccc1)NC(=O)[C@@H](NC(=O)OCc1ccccc1)C(C)(C)C)C(=O)NCc1ccccc1	U-937	EC50		MTT / p24	IIIB	0.0766 µM
Cc1nc2ccc(C(=O)NC(C)(C)C(=O)N[C@@]34CC[C@]5(C)[C@H](CC[C@@H]6[C@@]7(C)CC[C@H](OC(=O)[C@H]8C[C@@H](C(=O)O)C8(C)C)C(C)(C)[C@@H]7CC[C@]65C)C3=C(C(C)C)C(=O)C4)cc2[nH]1	MT-2	EC50		p24 / ELISA	92HT599	0.003–0.01 µM
CC(C)[C@H](NC(=O)OCc1ccccc1)C(=O)N[C@@H](Cc1ccccc1)[C@@H](O)[C@@H](NCc1ccccc1)C(=O)N[C@H](C(=O)NCc1ccccc1)C(C)C	HuT-78 + HUT 78	EC50		MTT / p24	IIIB	0.173 µM
CCCCCCCCC(=O)N(CCCCCCCCCCC(=O)O)CC(O)C(O)C(O[C@@H]1O[C@H](CO)[C@H](O)[C@H](O)[C@H]1O)C(O)CO	C8166	EC50		syncytia	LAI	>284 µM
Cc1c(C(=O)N[C@@H](Cc2ccccc2)[C@H](O)CN(CC(C)C)S(=O)(=O)c2ccc3nc(N)oc3c2)ccc2c1OCO2	MT-4	EC50		cytopathic effect / MTT	LAI WT	0.0107 µM
C#CCOCn1c(Cc2c(F)c(F)cc(F)c2F)c(CC)c(=O)[nH]c1=O	MT-4	EC50		MTT	N119 (Y181C)	>5 µM
Cc1cn([C@H]2C[C@H](N=[N+]=[N-])[C@@H](CO)O2)c(=O)[nH]c1=O	MT-4	EC50		MTT	IIIB	0.002 µg/mL
NC12CC3CC(CC(C3)C1)C2	CEM	EC50		syncytia	IIIB	>662 µM
CC(C)C1=C2[C@H]3CC[C@@H]4[C@@]5(C)CC[C@H](OC(=O)[C@H]6C[C@@H](C(=O)O)C6(C)C)C(C)(C)[C@@H]5CC[C@@]4(C)[C@]3(C)CC[C@@]2([C@@H](O)CNCc2ccc(N3CCCCC3)cc2)CC1=O	MT-2	EC50		p24 / ELISA	92HT599	<1 µM
CC(C)(C)NC(=O)[C@@H]1CN(Cc2cccnc2)CCN1C[C@@H](O)C[C@@H](Cc1ccccc1)C(=O)N[C@H]1c2ccccc2C[C@H]1O	H9(HIV-1(IIIB))	EC50		p24 / ELISA	IIIB	0.76 µM
CCOC(=O)CNc1nc(NC(=O)Nc2ccccc2)nc(Oc2cc(=O)oc3ccccc23)n1	MT-4	EC50		MTT	IIIB	>125 µg/mL
CCCCCCCCCCCCCCCC(=O)N(CCCCCCCCCCC(=O)O)CC(O)C(O)C(O[C@@H]1O[C@H](CO)[C@H](O)[C@H](O)[C@H]1O)C(O)CO	PBMC	EC50		XTT / p24		108 µM
CC(C)CN(C[C@@H](O)[C@H](Cc1ccccc1)NC(=O)O[C@H]1CO[C@H]2OCC[C@H]21)S(=O)(=O)c1ccc2c(c1)/C(=C/c1ccc[nH]1)C(=O)N2	MT-4	EC50	PR-L10F M46I M71V I84V	cytopathic effect / MTT	F	0.03 µM
C=C1CC[C@]2(OC)OC(=O)C(C)=C2[C@@H]2[C@@H]1[C@@]13O[C@@]1(C[C@@H](C)[C@@H]3O)[C@H]1O[C@@]21C	MT-4	EC50		MTT	IIIB	0.002 µg/mL
CC(C)C1=C2[C@H]3CC[C@@H]4[C@@]5(C)CC[C@H](OC(=O)[C@H]6C[C@@H](C(=O)O)C6(C)C)C(C)(C)[C@@H]5CC[C@@]4(C)[C@]3(C)CC[C@@]2(CC(=O)NCC(C)(C)NC(=O)c2ccc(Cl)cc2OCCN2CCCCC2)CC1=O	MT-2	EC50		p24 / ELISA	92HT599	<1 µM
CCOC(=O)CNc1nc(NC(=O)Nc2ccc(Br)cc2)nc(Oc2cc(=O)oc3ccccc23)n1	MT-4	EC50		MTT	IIIB	>125 µg/mL
CC(C)CN(C[C@@H](O)[C@H](Cc1ccccc1)NC(=O)O[C@H]1CO[C@H]2OCC[C@H]21)S(=O)(=O)c1ccc2c(c1)/C(=C/c1ccccc1O)C(=O)N2	MT-4	EC50		cytopathic effect / MTT	LAI	0.071 µM
CC(C)C1=C2[C@H]3CC[C@@H]4[C@@]5(C)CC[C@H](OC(=O)[C@H]6C[C@@H](C(=O)O)C6(C)C)C(C)(C)[C@@H]5CC[C@@]4(C)[C@]3(C)CC[C@@]2(NC(=O)C(C)(C)NC(=O)c2ccc(O[C@H]3CCOC3)cc2)CC1=O	MT-2	EC50		p24 / ELISA	92HT599	<0.003 µM
COc1ccc(CCNc2nc(NC(=O)Nc3ccc4ccccc4c3)nc(Oc3cc(=O)oc4ccccc34)n2)cc1OC	MT-4	EC50		MTT	IIIB	>12.85 µg/mL
CC(=O)OCc1ccc(/C=C2\C(=O)Nc3ccc(S(=O)(=O)N(CC(C)C)C[C@@H](O)[C@H](Cc4ccccc4)NC(=O)O[C@H]4CO[C@H]5OCC[C@H]54)cc32)o1	MT-4	EC50		cytopathic effect / MTT	LAI	0.056 µM
CCOC(=O)CNc1nc(Nc2ccc(Br)cc2)nc(Oc2cc(=O)oc3ccccc23)n1	MT-4	EC50		MTT	IIIB	7.16 µg/mL
COc1cc(Cl)ccc1C(=O)NC(C)(C)C(=O)N[C@@]12CC[C@]3(C)[C@H](CC[C@@H]4[C@@]5(C)CC[C@H](OC(=O)[C@H]6C[C@@H](C(=O)O)C6(C)C)C(C)(C)[C@@H]5CC[C@]43C)C1=C(C(C)C)C(=O)C2	MT-2	EC50		p24 / ELISA	92HT599	<0.003 µM
Cc1cnccc1C(=O)N[C@H](CSc1ccccc1)[C@@H](O)CN1CCN(Cc2cccnc2)C[C@H]1C(=O)NC(C)(C)C	MT-2	EC50		cytopathic effect / MTT	RF	0.444 µg/mL
CC(C)CN(C[C@@H](O)[C@H](Cc1ccccc1)NC(=O)O[C@H]1CO[C@H]2OCC[C@H]21)S(=O)(=O)c1ccc2c(c1)/C(=C/c1ccc(-c3ccccn3)cc1)C(=O)N2	MT-4	EC50		cytopathic effect / MTT	LAI	0.023 µM
CC(C)(C)NC(=O)[C@@H]1CN(Cc2cccnc2)CCN1C[C@H](O)[C@@H](CSc1ccccc1)NC(=O)c1cccc2ncccc12	CEM	EC90		cytopathic effect / XTT	SN 123	0.564 µM
Cc1ccnc2c1NC(=O)c1cccnc1N2C1CC1	MT-4	EC50	E138K	MTT		0.218 µM
CC(C)C1=C2[C@H]3CC[C@@H]4[C@@]5(C)CC[C@H](OC(=O)[C@H]6C[C@@H](C(=O)O)C6(C)C)C(C)(C)[C@@H]5CC[C@@]4(C)[C@]3(C)CC[C@@]2(CCNCc2ccccn2)CC1=O	MT-2	EC50		p24 / ELISA	92HT599	<1 µM
Nc1nc2c(ncn2[C@H]2C=C[C@@H](CO)C2)c(=O)[nH]1	MT-4	EC50		cytopathic effect		0.31 µg/mL
Cc1cccc(C)c1N1C(=O)c2ccc(Cl)cc2C1=O	CEM	EC50		syncytia	IIIB	>138 µM
CCO/N=C(\c1ccc(Br)cc1)C1CCN(C2(C)CCN(C(=O)c3c(C)cc[n+]([O-])c3C)CC2)CC1	PBMC	EC50		p24	JR-FL	0.005 µM
CCOCn1c(Cc2cccc(C(F)(F)F)c2)c(CC)c(=O)[nH]c1=O	MT-4	EC50		MTT	N119 (Y181C)	4.5 µM
CC(C)C1=C2[C@H]3CC[C@@H]4[C@@]5(C)CC[C@H](OC(=O)[C@H]6C[C@@H](C(=O)O)C6(C)C)C(C)(C)[C@@H]5CC[C@@]4(C)[C@]3(C)CC[C@@]2(CCNCC(F)(CCN)NC(=O)c2ccc(Cl)cc2)CC1=O	MT-2	EC50		p24 / ELISA	92HT599	<1 µM
CC(C)C1=C2[C@H]3CC[C@@H]4[C@@]5(C)CC[C@H](OC(=O)[C@H]6C[C@@H](C(=O)O)C6(C)C)C(C)(C)[C@@H]5CC[C@@]4(C)[C@]3(C)CC[C@@]2(NC(=O)C(C)(C)NC(=O)c2ccc(OCCN3CCOCC3)cc2)CC1=O	MT-2	EC50		p24 / ELISA	92HT599	<0.003 µM
C=CCOCn1c(Cc2cc(F)ccc2F)c(CC)c(=O)[nH]c1=O	MT-4	EC50		MTT	N119 (Y181C)	14 µM
CC(=O)OC[C@H]1O[C@@H](n2c(-c3ccc(N)cc3)cc(-c3ccco3)c(C#N)c2=O)[C@H](OC(C)=O)[C@@H](OC(C)=O)[C@@H]1OC(C)=O	MT-4	EC50		cytopathic effect / XTT		11.7 µM
CC(C)CN(C[C@@H](O)[C@H](Cc1ccccc1)NC(=O)OC1COC2OCCC12)S(=O)(=O)c1ccc2c(c1)/C(=C/c1ccccc1)C(=O)N2	MT-4	EC50		cytopathic effect / MTT	LAI	0.059 µM
Nc1nc(NC2CC2)c2ncn([C@H]3C=C[C@@H](CO)C3)c2n1	MT-4	EC90	RT-T69SSS L210W T215Y	p24	XM-T69SSS	32 µM
CC(C)[C@H](NC(=O)[C@H](NCc1ccc(Cl)cc1)[C@H](O)[C@H](Cc1ccccc1)NC(=O)[C@@H](NC(=O)OCc1ccccc1)C(C)(C)C)C(=O)NCc1nc2ccccc2[nH]1	MT-4	EC50		p24	RF	0.038 µM
Cc1c(F)cccc1C(=O)N[C@@H](Cc1ccccc1)[C@H](O)CN1C[C@H]2CCCC[C@H]2C[C@H]1C(=O)NC(C)(C)C	CEM	EC50		cytopathic effect / MTT	IIIB	0.973 µg/mL
Cc1cn([C@H]2C=C[C@@H](CO)O2)c(=O)[nH]c1=O	MT-4	EC90	RT-K65R L74V M184V Y115F	p24	XM-ABC-resistant	0.8 µM
Cc1cc(C#N)cc(C)c1OCC(=O)N[C@@H](Cc1ccccc1)[C@H](O)CN(CC(C)C)S(=O)(=O)c1ccc2nc(N)oc2c1	MT-4	EC50		cytopathic effect / MTT	LAI WT	0.0871 µM
CCOC(=O)CNc1nc(NC(=O)Nc2ccc(F)cc2)nc(Oc2cc(=O)oc3ccccc23)n1	MT-4	EC50		MTT	IIIB	>125 µg/mL
CC(C)[C@H](NC(=O)OCc1ccccc1)C(=O)N[C@@H](Cc1ccccc1)[C@@H](O)[C@@H](NCc1ccc(Br)cc1)C(=O)N[C@H](C(=O)NCc1nc2ccccc2[nH]1)C(C)C	U-937	EC50		MTT / p24	IIIB	0.0497 µM
O=[N+]([O-])c1ccc(/C=N/Nc2ccnc3c(C(F)(F)F)cc(Cl)cc23)o1	CEM	EC50		cytopathic effect / XTT	SN 123	0.015 µM
CCOCn1c(Cc2cc(C(F)(F)F)cc(C(F)(F)F)c2)c(C(C)C)c(=O)[nH]c1=O	MT-4	EC50		MTT	N119 (Y181C)	17 µM
CNc1nc2ccc(S(=O)(=O)N(CC(C)C)C[C@@H](O)[C@H](Cc3ccccc3)NC(=O)COc3c(C)cccc3C)cc2o1	MT-4	EC50		cytopathic effect / MTT	LAI WT	0.0468 µM
Cc1c(N)cccc1C(=O)N[C@@H](Cc1ccccc1)[C@@H](O)CN1C[C@H]2CCCC[C@H]2C[C@H]1C(=O)NC(C)(C)C	CEM	EC50		cytopathic effect / MTT	IIIB	0.244 µg/mL
Cc1ccc(/C=C2\C(=O)Nc3ccc(S(=O)(=O)N(CC(C)C)C[C@@H](O)[C@H](Cc4ccccc4)NC(=O)O[C@H]4CO[C@H]5OCC[C@H]54)cc32)o1	MT-4	EC50	PR-L10F M46I M71V I84V	cytopathic effect / MTT	F	0.039 µM
Cc1cn([C@H]2C[C@H](N=[N+]=[N-])[C@@H](CO)O2)c(=O)[nH]c1=O	TZM-bl	EC50		luciferase	81A	0.001964 µM
Nc1nc(NC2CC2)c2ncn([C@H]3C=C[C@@H](CO)C3)c2n1	PBMC	EC50		p24	WT	<4 µM
CC(C)(C)NC(=O)[C@@H]1C[C@@H]2CCCC[C@@H]2CN1C[C@H](O)[C@@H](CSc1ccccc1)NC(=O)c1cccc2c1CCCN2	CEM	EC90		cytopathic effect / XTT	SN 123	0.231 µM
CC(C)CN(C[C@@H](O)[C@H](Cc1ccccc1)NC(=O)OC1COC2OCCC12)S(=O)(=O)c1ccc2c(c1)CC(=O)N2	MT-4	EC50	PR-L10F M46I M71V I84V	cytopathic effect / MTT	F	0.19 µM
CCOC(=O)CNc1nc(Nc2ccc(Cl)cc2)nc(Oc2cc(=O)oc3ccccc23)n1		EC50	RT-resistant RES056 (K103N + Y181C)	MTT	RES056	>45.6 µg/mL
O=C1c2ccc(O)cc2C(=O)N1C12CC3CC(CC(C3)C1)C2	CEM	EC50		syncytia	IIIB	>13.3 µM